A mixed list of measured activities; the numbers were collected in NIAID ChemDB.

Common to all: whole-cell or culture tests; agent: Herpes simplex virus 1

Conditions beyond the fields shown may differ between rows. An empty or dashed field is not shown. ECn is the concentration giving n% inhibition of infection, replication or growth.

compound | method | cells | strain or isolate | measure | value
CC1=C[C@H](n2ccc(=O)[nH]c2=O)C[C@]1(C)CO | - | - | - | EC50 | >100 µg/mL
CSc1nsc(-c2ccccc2)c1C#N | plaque count | VERO | F strain | EC50 | >20 µM
O=C(NNCc1cccc(O)c1O)c1ccccc1O | PCR | HFF | KOS | EC50 | 0.35 µM
O=C(NCc1ccc(Cl)cc1)c1c[nH]c2c(F)cc(CCCO)cc2c1=O | - | - | PFA2 (T566A A605V) | EC50 | 0.6 µM
Nc1nc2c(ncn2COCCO)c(=O)[nH]1 | cytopathic effect | PRK | B2006 (TK-) | EC50 | 70 µg/mL
Oc1ccc([C@@H]2c3c(O)cc(O)cc3[C@@H]3c4c(cc(O)cc4[C@H]2[C@H]2c4cc(O)cc5c4[C@@H](c4cc(O)cc(O)c4[C@H]2c2ccc(O)cc2)[C@@H](c2ccc(O)cc2)O5)O[C@@H]3c2ccc(O)cc2)cc1 | MTT | VERO | - | EC50 | 8.7 µM
CC(=O)OCCOCn1c(-c2ccccc2)c(C#N)c([N+](=O)[O-])c1-c1ccccc1 | plaque count | VERO | - | EC50 | >300 µM
COC(=O)[C@]1(C)CCC[C@]2(C)c3ccc4nc5c(nc4c3CCC12)CCCC5 | plaque count | E6SM | - | EC50 | >4 µg/mL
S=c1cc(-c2ccccc2)s[nH]1 | plaque count | VERO | F strain | EC50 | >90 µM
Nc1ncc2ncn(/C=C3\CC3CO)c2n1 | ELISA | - | - | EC50 | >100 µM
Nc1nc2c(ncn2COCCO)c(=O)[nH]1 | plaque count | 3T6 | 511 | EC50 | 0.05 µg/mL
CCOc1ccc(-c2c3cc(O)c(=O)cc-3oc3cc(O)c(O)cc23)cc1 | plaque count | VERO | Clinical isolate | EC50 | 4.2 µM
Oc1ccc([C@@H]2c3c(O)cc(O)cc3[C@H]3c4c(cc(O)cc4[C@@H]2[C@H]2c4cc(O)cc5c4[C@@H](c4cc(O)cc(O)c4[C@@H]2c2ccc(O)cc2)[C@H](c2ccc(O)cc2)O5)O[C@@H]3c2ccc(O)cc2)cc1 | MTT | VERO | - | EC50 | 24.1 µM
Cn1cc(C(=O)NCc2ccc(Cl)cc2)c(=O)c2cc(CN3CCOCC3)ccc21 | plaque count | HFF | SC16-S1 (acyclovir-resistant) | EC50 | 3.5 µM
Cc1nsc(C)c1C#N | plaque count | VERO | F strain | EC50 | >1000 µM
Cc1ccc(Cc2c(O)cc(O)cc2[C@@H]2c3c(cc(O)cc3[C@H](C)[C@@H](c3ccc(O)cc3)c3c(O)cc(O)cc3C[C@H](Oc3cccc(O)c3)c3ccc(O)cc3)O[C@H]2c2ccc(O)cc2)cc1.O | MTT | VERO | - | EC50 | 17.9 µM
C[C@@H](c1ccccc1)N(CC(=O)Nc1ccc(-c2csc(N)n2)cc1)C(=O)c1ccncc1 | plaque count | BHK-21/C13 | DLSPTK | EC50 | 0.12 µM
O=c1[nH]c(=O)n([C@H]2C[C@H](O)[C@@H](CO)O2)cc1I | virus yield | PRK | KOS | EC99 | 0.1 µg/mL
O=c1[nH]c(=O)n([C@@H]2O[C@H](CO)[C@@H](O)[C@@H]2F)cc1I | - | - | - | MIC | 0.025 µM
Nc1nc2c(ncn2[C@@H]2C[C@H](CO)[C@H]2O)c(=O)[nH]1 | plaque count | - | - | EC50 | 0.8 µM
CC(N)c1cn([C@H]2C[C@H](O)[C@@H](CO)O2)c(=O)[nH]c1=O | cytopathic effect | HFF | E-377 | EC50 | 1.7 µM
Nc1nccc2c1ncn2[C@@H]1C[C@H](CO)[C@@H](O)[C@H]1O | cytopathic effect | - | TK-/VMW 1837 | EC50 | >400 µg/mL
C=CCc1nc(C)n2c(=O)[nH]c(NC(C)=O)nc12 | cytopathic effect | PRK | KOS | EC50 | >200 µg/mL
O=C(NCc1ccc(Cl)cc1)c1cn2c3c(cc(CN4CCOCC4)cc3c1=O)OC(c1cccnc1)C2 | plaque count | HFF | E-377 | EC50 | 11.3 µM
COC(=O)[C@H]1NC(=O)[C@H]2NC(=O)[C@H](NC(=O)[C@@H]3NC(=O)[C@H]4NC(=O)[C@H](NC(=O)[C@H](N)c5ccc(O)c(c5)Oc5cc4cc(O)c5C)[C@H](O)c4ccc(cc4)Oc4cc3cc(c4O)Oc3ccc(cc3)[C@H]2O[C@@H]2C[C@@H](N)[C@@H](O)[C@H](C)O2)c2ccc(O)c(c2)-c2c(O)cc(O)cc21 | cytopathic effect | HEL | KOS | EC50 | 120 µM
CC(=O)NC(CCc1ccc(Cl)c(Cl)c1)c1cccc(O)c(=O)c1 | plaque count | HFF | Clinical isolate | EC50 | 2.81 µM
Cc1nc(C(C)C)c2[nH]c(=S)[nH]c(=O)n12 | cytopathic effect | PRK | KOS | EC50 | >200 µg/mL
CC1(CO)CCC(Cn2nnc3c(=O)[nH]cnc32)C1(C)C | cytopathic effect | E6SM | KOS | EC50 | ≥200 µg/mL
CC(C)c1ccc(O)c(O)c(=O)c1 | plaque count | HFF | Clinical isolate | EC50 | 0.97 µM
C=CCc1nc(C)n2c(=O)[nH]c(=S)[nH]c12 | cytopathic effect | PRK | KOS | EC50 | >40 µg/mL
C[C@H]1[C@H](O)[C@@H](CO)O[C@H]1n1cc(I)c(=O)[nH]c1=O | cytopathic effect | RPMI8226 | F | EC50 | 7.14 µg/mL
Nc1nc2c(ncn2CCC(CO)CO)c(=O)[nH]1 | plaque count | BALB/3T3 | Tomioka | EC50 | 0.067 µg/mL
CSc1nsc(-c2ccncc2)c1C#N | plaque count | VERO | F strain | EC50 | >2.5 µM
CCOC(=O)c1c(Cl)c(-c2ccccc2)n(COCCOC(C)=O)c1C | plaque count | VERO | - | EC50 | >200 µM
CO[C@H]1O[C@H](Cn2ccc(=O)[nH]c2=O)[C@H](O)[C@H]1OCc1ccccc1F | cytopathic effect | E6SM | KOS | EC50 | 9.6 µg/mL
COC(=O)[C@]1(C)CCC[C@]2(C)c3cc(Br)c4nc(C)[nH]c4c3CCC12 | plaque count | E6SM | - | EC50 | >4 µg/mL
O=c1[nH]c(=O)n([C@H]2C[C@H](O)[C@@H](CO)O2)cc1/C=C/C(F)(F)F | virus yield | PRK | KOS | EC99 | 0.03 µg/mL
Nc1nc(=O)n([C@@H]2O[C@H](CO)[C@@H](O)[C@@H]2F)cc1I | - | - | - | MIC | 0.01 µM
Nc1ncc2ncn(/C=C3/CC3CO)c2n1 | ELISA | - | - | EC50 | >100 µM
C[C@H]1[C@H](O)[C@@H](CO)O[C@H]1n1cc(I)c(N)nc1=O | cytopathic effect | RPMI8226 | KOS | EC50 | 1.36 µg/mL
COC(=O)Nc1nc2c3c(ccc2[nH]1)[C@@]1(C)CCC[C@@](C)(C(=O)OC)C1CC3 | plaque count | E6SM | - | EC50 | >4 µg/mL
Cc1cn([C@H]2C[C@H](N=[N+]=[N-])[C@@H]([C@@H](C)O)O2)c(=O)[nH]c1=O | - | - | - | EC50 | 150 µg/mL
O=c1[nH]c(=O)n([C@@H]2O[C@H](CO)[C@@H](O)[C@H]2O)cc1/C=C/Br | cytopathic effect | HEP-2 | KOS | EC50 | 150 µg/mL
O=c1[nH]cnc2c1ncn2C/C=C(/CO)c1ccccc1 | cytopathic effect | CCL18 | - | EC50 | >100 µg/mL
CSc1nsc(C2CCCCC2)c1C#N | plaque count | VERO | F strain | EC50 | >50 µM
Nc1ncnc2c1ncn2C[C@@H](CO)OCP(=O)(O)O | cytopathic effect | PRK | KOS | EC50 | 1 µg/mL
Cc1cn([C@@H]2O[C@H](CO)[C@@H](O)[C@@H]2Cl)c(=O)nc1N | - | - | - | MIC | 0.64 µM
O=C(O)c1c([N+](=O)[O-])c(-c2ccccc2)n(COCCO)c1-c1ccccc1 | plaque count | VERO | - | EC50 | >300 µM
O=C(NCc1ccc(Cl)cc1)c1c[nH]c2c(F)cccc2c1=O | - | - | ARAA9 (N961K (V)) | EC50 | 18 µM
Nc1nc2c(ncn2[C@H]2C=C[C@@H](CO)[C@H](O)C2)c(=O)[nH]1 | - | - | KOS (TK-) | EC50 | 1.28 µg/mL
Nc1nc(=O)n([C@H]2C[C@H](O)[C@@H](CO)O2)cc1/C=C/Br | cytopathic effect | Primary rabbit kidney cells | F | EC50 | 0.07 µg/mL
O=C1C2=C(SCCS2)C(=O)N1CCCCN1CCN(c2ccc(F)cc2)CC1 | plaque count | VERO 76 | - | EC50 | 19 µM
Nc1nc2c(ncn2CC=C(CO)CO)c(=O)[nH]1 | cytopathic effect | CCL18 | - | EC50 | >100 µg/mL
C[C@H]1[C@H](O)[C@@H](CO)O[C@H]1n1cc(Br)c(N)nc1=O | cytopathic effect | RPMI8226 | F | EC50 | 1.86 µg/mL
Nc1nc2c(ncn2C/C=C(/CO)c2ccccc2)c(=O)[nH]1 | cytopathic effect | CCL18 | - | EC50 | >100 µg/mL
C=C1C[C@@H](OC(=O)c2ccccc2)[C@H]2[C@](C)(C(=O)O)CCC[C@]2(C)C1CC/C(C)=C/CO | plaque count | HELA229 | HF | EC50 | 1.26 µg/mL
O=c1[nH]c(=O)n([C@@H]2O[C@H](CO)[C@@H](O)[C@@H]2F)cc1/C=C/Br | - | - | - | MIC | 0.4 µM
Oc1ccc([C@H]2c3c(O)cc(O)cc3[C@@H]3c4c(cc(O)c5c4[C@H]2[C@@H](c2cc(O)cc(O)c2)[C@@H]5c2ccc4c(c2)[C@@H](c2cc(O)cc(O)c2)[C@H](c2ccc(O)cc2)O4)O[C@H]3c2ccc(O)cc2)cc1 | MTT | VERO | - | EC50 | 9.1 µM
CC1=C[C@H](n2ccc(N)nc2=O)CC1(CO)CO | - | - | - | EC50 | >100 µg/mL
C[C@H]1[C@H](O)[C@@H](CO)O[C@H]1n1cc(Br)c(=O)[nH]c1=O | cytopathic effect | RPMI8226 | Hangai | EC50 | 6.52 µg/mL
N#Cc1c([N+](=O)[O-])c(-c2ccccc2)n(COCCO)c1-c1ccccc1 | plaque count | VERO | - | EC50 | >300 µM
CSc1nsc(-c2cc[n+](C)cc2)c1C#N | plaque count | VERO | F strain | EC50 | >1000 µM
CCc1cn([C@H]2C[C@H](O)[C@@H](CO)O2)c(=O)[nH]c1=O | cytopathic effect | HFF | E-377 | EC50 | >170 µM
CC(CC[C@@H](C)C1CCC2C3C[C@H](COS(=O)(=O)O)C4C[C@H](OS(=O)(=O)O)[C@@H](OS(=O)(=O)O)C[C@]4(C)C3CC[C@@]21C)C(C)(C)C.[Na+].[Na+].[Na+] | plaque count | VERO | KOS | EC50 | 5.63 µg/mL
CSc1nsc(-c2ccccn2)c1C#N | plaque count | VERO | F strain | EC50 | >50 µM
CC1=C[C@H](n2ccc(N)nc2=O)C[C@]1(C)CO | - | - | - | EC50 | >100 µg/mL
N#Cc1c(Cl)nsc1Cl | plaque count | VERO | F strain | EC50 | >4 µM
C/C(=C\Cn1cnc2c(Cl)ncnc21)CO | cytopathic effect | CCL18 | - | EC50 | >100 µg/mL
CC(C)=CCc1ccc(O)c(=O)cc1C(C)C | plaque count | VERO | Clinical isolate | EC50 | 0.24 µM
[O-][n+]1onc2ncnc(N3CC[N+]4(CC3)CC[N+]3(CCN(c5ncnc6no[n+]([O-])c56)CC3)CC4)c21 | plaque count | GMK | K1R | EC50 | 8.4 µM
C/C(=C\Cn1cnc2c(N)ncnc21)CO | cytopathic effect | CCL18 | - | EC50 | >100 µg/mL
COc1ccccc1/C=C/c1cc(=O)oc2c1ccc1occ(-c3ccc(-c4ccccc4)cc3)c12 | cytopathic effect | - | - | EC50 | 250 µg/mL
CC1(CO)CCC(Cc2nc3ncnc(N)c3[nH]2)C1(C)C | cytopathic effect | E6SM | TK-/TK+ (VMW 1837) | EC50 | 40 µg/mL
Cc1cn(CCCC(O)CF)c(=O)[nH]c1=O | cytopathic effect | ESM | KOS | EC50 | >400 µg/mL
CC1(CO)CCC(Cn2cnc3c(=O)[nH]cnc32)C1(C)C | cytopathic effect | E6SM | TK-/TK+ (VMW 1837) | EC50 | >200 µg/mL
O=c1[nH]c(=O)n([C@@H]2O[C@H](CO)[C@@H](O)[C@@H]2O)cc1/C=C/Br | - | - | - | MIC | 0.1 µM
OC/C(=C/Cn1cnc2c(Cl)ncnc21)c1ccccc1 | cytopathic effect | CCL18 | - | EC50 | >100 µg/mL
Nc1ccn(CCCC(O)CF)c(=O)n1 | cytopathic effect | ESM | B2006 (TK-) | EC50 | >400 µg/mL
O=C1C=C2[C@@H]3C4C(=CC(O)=CC4O[C@H]3c3ccc(O)cc3)C34C(c5ccc(O)cc5)[C@@H]3c3c(O)cc(O)cc3[C@@H]3[C@@H](c5ccc(O)cc5)[C@@H]1C(=O)C234 | MTT | VERO | - | EC50 | 12.2 µM
Nc1ncnc2nc(-c3cscn3)[nH]c12 | plaque count | VERO | - | EC50 | >100 µg/mL
Nc1ccn(C(CF)CCCO)c(=O)n1 | cytopathic effect | ESM | KOS | EC50 | >400 µg/mL

8 of the rows above, restated:

compound,method,cells,strain or isolate,measure,value
CC(CC[C@@H](C)C1CCC2C3C[C@H](COS(=O)(=O)O)C4C[C@H](OS(=O)(=O)O)[C@@H](OS(=O)(=O)O)C[C@]4(C)C3CC[C@@]21C)C(C)(C)C.[Na+].[Na+].[Na+],plaque count,VERO,KOS,EC50,5.63 µg/mL
CC1(CO)CCC(Cn2nnc3c(=O)[nH]cnc32)C1(C)C,cytopathic effect,E6SM,KOS,EC50,≥200 µg/mL
C[C@H]1[C@H](O)[C@@H](CO)O[C@H]1n1cc(Br)c(=O)[nH]c1=O,cytopathic effect,RPMI8226,Hangai,EC50,6.52 µg/mL
Nc1ncc2ncn(/C=C3\CC3CO)c2n1,ELISA,-,-,EC50,>100 µM
Nc1nc(=O)n([C@H]2C[C@H](O)[C@@H](CO)O2)cc1/C=C/Br,cytopathic effect,Primary rabbit kidney cells,F,EC50,0.07 µg/mL
Oc1ccc([C@@H]2c3c(O)cc(O)cc3[C@H]3c4c(cc(O)cc4[C@@H]2[C@H]2c4cc(O)cc5c4[C@@H](c4cc(O)cc(O)c4[C@@H]2c2ccc(O)cc2)[C@H](c2ccc(O)cc2)O5)O[C@@H]3c2ccc(O)cc2)cc1,MTT,VERO,-,EC50,24.1 µM
COC(=O)[C@H]1NC(=O)[C@H]2NC(=O)[C@H](NC(=O)[C@@H]3NC(=O)[C@H]4NC(=O)[C@H](NC(=O)[C@H](N)c5ccc(O)c(c5)Oc5cc4cc(O)c5C)[C@H](O)c4ccc(cc4)Oc4cc3cc(c4O)Oc3ccc(cc3)[C@H]2O[C@@H]2C[C@@H](N)[C@@H](O)[C@H](C)O2)c2ccc(O)c(c2)-c2c(O)cc(O)cc21,cytopathic effect,HEL,KOS,EC50,120 µM
O=C1C=C2[C@@H]3C4C(=CC(O)=CC4O[C@H]3c3ccc(O)cc3)C34C(c5ccc(O)cc5)[C@@H]3c3c(O)cc(O)cc3[C@@H]3[C@@H](c5ccc(O)cc5)[C@@H]1C(=O)C234,MTT,VERO,-,EC50,12.2 µM